{
  "source": "patent US20230015525A1",
  "about": "“Anaerobic Blood Storage and Pathogen Inactivation Method” (Hemanext Inc., priority 2019, published 2023)",
  "tested_on": "RBCs",
  "test": "Levels of GSH and GSSG in RBCs at different pre-storage % SO2, UHPLC/MS (Example 13)",
  "type": "cell-based",
  "conditions": "for GSH/GSSG / concentration in RBC, MEAN (4): Day 2",
  "note": "Where “and” joins values, the source holds several entries; their conditions need not be identical. Equal values may be shown once.",
  "data": [
    {"smiles": "N[C@@H](CCC(=O)N[C@@H](CS)C(=O)NCC(=O)O)C(=O)O", "note": "[GSH, glutathione]", "values": [
      {"measurement": "maximum level of GSH in RBCs", "setting": "5% SO2", "value": 1.6, "unit": "mM"},
      {"measurement": "maximum level of GSH in RBCs", "setting": "20% SO2", "value": 1.4, "unit": "mM"},
      {"measurement": "GSH/GSSG", "setting": "5% SO2", "value": 4.3},
      {"measurement": "concentration in RBC, MEAN (4)", "setting": "5% SO2", "value": "1,600±511 μM and 1,604 μM"},
      {"measurement": "GSH/GSSG", "setting": "20% SO2", "value": 2.5},
      {"measurement": "concentration in RBC, MEAN (4)", "setting": "20% SO2", "value": "1,374 μM"},
      {"measurement": "GSH/GSSG", "setting": "+95% SO2", "value": 2.1},
      {"measurement": "concentration in RBC, MEAN (4)", "setting": "+95% SO2", "value": "907 ± 525 µM and 907 µM"},
      {"measurement": "GSH/GSSG", "setting": "Control (60% SO2)", "value": 1.6},
      {"measurement": "concentration in RBC, MEAN (4)", "setting": "Control (60% SO2)", "value": 765, "unit": "µM"}
    ]}
  ]
}
